Laboratory results reported in the supplement of paper PMC9931576.
Human monoclonal antibodies against the spike receptor-binding domain (heavy:light variable regions). IC50 against pseudoviruses bearing the spike of naturally observed variants; lower = stronger; >10 µg/ml means not reached at the top dose. No active / inactive call. The stated detection limit is 0.0005 µg/ml; values near or below 0.001 µg/ml lie at the floor of the assay.

B1: BD56-080 (protein)
chain 1: QVQLVQSGAEVKKPGSSVKVSCKASGGTFSSYSITWVRQAPGQGLEWMGRIIPILEIPNYAQKFQGTVTITADKSTSTAYLELRSLRSEDTAVYYCVREVGYSSMSSSYYFDNWGQGTLVTVSS
chain 2: QSVLTQPPSVSGAPGQRVTISCTGSSSNIGAGYDVHWYQQLPGTAPKLLIYANTNRPSGVPDRFSGSKSGTSVSLVITGLQAEDELDYYCQSYDSSLSGSVFGGGTKLTVL
B2: BD56-102 (protein)
chain 1: QVQLVQSGAEVKKPGSSVKVSCKASGGIFSRYSISWVRQAPGLGLEWMGRIIPILGIAIYAQKFQGRVTITADKSTSTAYMGLSSLRSEDSAVYYCARDLDPPQLRLGELALSFGFDIWGRGTLVTVSS
chain 2: QSVLTQPPSASGTPGQRVTISCSGSSSNIGSHTVSWYQQFPGTAPKLLIYSNNQRPSGVPDRFSGSKSGTSASLAISGLQSEDEADYYCAAWDDNLTGYYVFGTGTAVTVL
B3: DH1043 (protein)
chain 1: QVQLVQSGAEVKKPGSSVKVSCKASGGTFSRYAINWVRQAPGQGLEWMGRIIPIFGIANYAQKFQGKVTITADKSTSTAYMELSSLRSEDTAVYYCARADYYYDSSGYFFDYWGQGTLVTVSS
chain 2: EIVLTQSPGTLSLSPGERATLSCRASQSVSSSYLAWYQQKPGQTPRLLIYGASSRATGIPARFSGSGSGTNFTLTISRLEPEDFAVYYCQQYSSSRTFGQGTKVEIK
B4: BD56-088 (protein)
chain 1: EVQLVESGGGLVQPGGSLRLSCSASGFTFSSFPMHWVRQAPGKGLEYVSSISSDGGITYYADSVKGRFTISRDNSKNTLYLQMSSLRAEDTAMYYCVKDKPLAPVDYFDYWGQGTLVIVSS
chain 2: DIQMTQSPSSLSASVGDRVTITCRASQSISRYLNWYQQKPGKAPKLLIYDASNLQSGVPSRFSGGGSGTDFTLTISSLQPEDFATYYCQQSYSTPDSFGQGTKLEIK
B5: BD56-073 (protein)
chain 1: EVLLLESGGALVQPGESLRLSCAASGFSFSSYAMSWVRQAPGKGLEWVSAISGSGGLKYYADSVKGRFTLSRDNSKNTLYLQMNSLRAEDTAVYYCAREESHRETGVPNWFDPWGQGTLVTVSS
chain 2: DIQMTQSPSSLSASVGDRVTITCRASQSISSSLNWYQQRPGNAPKLLIYAASSLQSGVPSRFSGSGSGTDFTLTISSLQPEDFATYYCQQSYITPPWTFGQGTKVEIK
B6: BD56-078 (protein)
chain 1: QVQLVESGGGVVQPGRSLRLSCAASKFTFSNFALHWVRQAPGKGLDWVAVISFDGNNNYYADSVKGRFTISRDNSKNTLYLEMNSLRAEDTAVYFCARGDYYGSGSYYNPLPNFDYWGQGALVTVSS
chain 2: QSVLTQPPSASGTPGQGVTISCSGSSSNIGSYSVNWYQQLPGTAPKLLIYSDNQRPSGVPDRISGSKSGTSASLAISGLQSGDEADYYCAAWDDSLNGWVFGGGTKLTVL
B7: BD56-066 (protein)
chain 1: EVQLVESGGGLVQPGRSLRLSCAASGFSFDDYAMHWVRQAPGKGLEWVSGVTWNSGTIGYADSVKGRFIISRDNAKNSLYLQMMSLRAEDTAFYFCAKDGSATKVLWFNPENYYFESWGQGTPVTVSS
chain 2: QSVLTQPPSVSAAPGQKVTISCSGSSSNIGNNYVSWYQHLPGTTPKLLIYDNNKRPSGIRDRFSGSKSGTSATLGITGLQTGDEADYYCGTWDSSLSVYVFGSGTKVTVL
B8: BD56-070 (protein)
chain 1: EVQLVESGGGLVQPGRSLRLSCAASGFTFDDYAMHWVRQAPGKGLEWVSGSSWNSGTIGYAESVKGRFIISRDNAKNSLYLQMIRLRAEDTALYYCAKDFRGSYREGYSMDVWGQGTTVTVSS
chain 2: QSALTQPASVSGSPGQSITISCTGASSDIGTYNYVSWYQQHPGKAPKLMISDVSKRPSGVSNRFSGSKSGDTASLTISGLQTEDEADYYCSSYTSTSTVLFGGGTKLTVL
B9: BD56-064 (protein)
chain 1: EVYLVESGGGLVKPGGSLRLSCAASGFTFSHYGMNWVRQAPGKGLEWVSSISGGSSFIHYADSVRGRFTISRDNAKKSLYLHMNRLRAEDTAVYYCAKDLGSRDSSTWYDPGLNYDGMDVWGQGTTVTVS
chain 2: QSVLTQPPSASGTPGQRVTISCSGSSSNIGSSSVNWYQQLPGTAPKLLIYSDNRRPSGVPDRFSGSKSGTSASLAISGLQTGDEADYYCATWDDSLNGLWVFGGGTKLTVL
B10: BD56-082 (protein)
chain 1: QVQLQESGPGLVKPSQTLSLTCTVSGGSISSGRYFLNWIRQPAGKGLEWIGRIYGNGSTNCNPSLKSRVTISVDTSKNQFSLKLSSVTAADTAVYYCARDCFPDYDLFTGYYDDFYFDLWGRGTLVTVSS
chain 2: SYELTQPPSVSVSPGQTARITCSGDALPKQYTYWYLQKPGQAPIVVMYKDSERPSGIPERFSGSSSGTTVTLTISGVQAEDEADYYCQSADSSGVVFGGGTKLTVL
B11: BD56-068 (protein)
chain 1: EVQLLESGGGLIQPGGSLRLSCAASGFSFNLYAMTWVRQAPGKGLEWVSTMSGSGDSTHYADSVKGRFTISRDNSKSTLFLQMNSLRAEDTAIYYCAKNIDMSFFDYWGQGTLVTVSS
chain 2: SYVLTQPPSVSVAPGKTARITCGGNKIGSQSVHWYRQKPGQAPLVVIYYDTDRPSGIPERFSGSNSGNTATLTISRVEAGDEADYYCQVWDSSSDQPIFGGGTKLTVL
B12: BD56-063 (protein)
chain 1: EVQLVESGGGLVQPGGSLRLSCAASGFTFRTYDMHWVRQGTGKGLEWVSAIGTAGDTYYPDSVKGRFTISRENAKNSLYLQMNSLRAGDTAVYYCARGVSLTGYYNPGDYYYYMDVWGKGTMVTVSS
chain 2: DIQMTQSPSSLSASVGDRVTITCRASQSIRTYLNWYQQKPGNAPKLLIYSASSLQGGVPSRFSGSGSGTDFTLTISSLQPEDFATYHCQQSYSTPPWTFGQGTKVEI

What was measured:
Experiment in all cases: pseudovirus neutralization IC50; higher = weaker neutralization
[1] = target: SARS-CoV-2 Omicron BA.1 spike pseudovirus
Protocol: (§1)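 Single-round VSV luciferase pseudovirus mixed with antibody dilutions for 1 h and put on Huh-7 cells for about a day; IC50 from the dose curve.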

[2] = target: SARS-CoV-2 Omicron BA.2 spike pseudovirus
Protocol: as §1

[3] = target: SARS-CoV-2 Omicron BA.2.75 spike pseudovirus
Protocol: as §1

[4] = target: SARS-CoV-2 Omicron BA.5 spike pseudovirus
Protocol: as §1

[5] = target: SARS-CoV-2 Omicron BQ.1.1 spike pseudovirus
Protocol: as §1

[6] = target: SARS-CoV-2 Omicron XBB spike pseudovirus
Protocol: as §1

[7] = target: SARS-CoV-2 early D614G spike pseudovirus
Protocol: as §1

Binder | pseudovirus neutralization IC50 [1] [µg/mL] | pseudovirus neutralization IC50 [2] [µg/mL] | pseudovirus neutralization IC50 [3] [µg/mL] | pseudovirus neutralization IC50 [4] [µg/mL] | pseudovirus neutralization IC50 [5] [µg/mL] | pseudovirus neutralization IC50 [6] [µg/mL] | pseudovirus neutralization IC50 [7] [µg/mL]
B1 | 0.743 | 0.606 | 0.864 | > 10 | > 10 | > 10 | 0.804
B2 | 1.23 | 1.75 | 1.88 | 1.63 | 2.11 | 1.75 | 1.58
B3 | > 10 | > 10 | > 10 | > 10 | > 10 | > 10 | 0.0056
B4 | > 10 | > 10 | > 10 | > 10 | > 10 | > 10 | > 10
B5 | 3.58 | 6.05 | 4.42 | 5.1 | 2.92 | 7.44 | 0.433
B6 | 0.0311 | 0.0132 | 0.0458 | > 10 | > 10 | > 10 | 0.029
B7 | 0.0171 | 0.0113 | 0.0122 | 0.258 | 1.2 | > 10 | 0.0268
B8 | 0.0798 | 0.069 | 0.0792 | 2.69 | > 10 | > 10 | 0.0671
B9 | 0.0968 | 0.0886 | 0.0336 | 0.0318 | > 10 | > 10 | 0.0355
B10 | > 10 | > 10 | > 10 | > 10 | > 10 | > 10 | > 10
B11 | 1.75 | 1.99 | 1.76 | > 10 | > 10 | > 10 | 0.776
B12 | > 10 | > 10 | > 10 | > 10 | > 10 | > 10 | > 10
